Results of unrelated studies side by side (data: NIAID ChemDB).

Common to all: tests in culture; species: Cryptococcus neoformans

An empty or dashed field is not shown.

C[C@H]1[C@H](O)[C@@H](C)/C=C/C=C/C=C/C=C/C=C/C=C/C=C/[C@H](O[C@@H]2O[C@H](C)[C@@H](O)[C@H](N)[C@@H]2O)C[C@@H]2O[C@](O)(C[C@@H](O)C[C@@H](O)CC[C@H](O)[C@@H](O)C[C@@H](O)CC(=O)O[C@H]1C)C[C@H](O)[C@H]2C(=O)O ; method: broth dilution ; endpoint: MFC ; value: 12.5 µg/mL
c1ccc(-c2ccc(C(c3ccccc3)n3ccnc3)cc2)cc1 ; endpoint: MIC90 ; strain: 33 strains ; value: 5 µg/mL
CCC(C)n1ncn(-c2ccc(N3CCN(c4ccc(OC[C@H]5CO[C@](Cn6cncn6)(c6ccc(Cl)cc6Cl)O5)cc4)CC3)cc2)c1=O ; endpoint: MIC ; strain: ATCC 90113 ; value: 2 µg/mL
CN[C@H]1CC[C@@H](c2ccc(Cl)c(Cl)c2)c2ccccc21 ; method: broth dilution ; endpoint: MFC ; strain: Bt81 ; value: 8 µg/mL
CO[C@@H]1[C@H]2OC(C)(C)O[C@H]2O[C@@H]1C1=NOC(C(C)=O)C1 ; endpoint: MIC ; value: 25 µg/mL
C[C@@H](N1CCN(Cc2cn(Cc3ccc(F)cc3F)c3c(Cl)cccc23)CC1)[C@](O)(Cn1cncn1)c1ccc(F)cc1F ; method: resazurin ; endpoint: MIC80 ; strain: ATCC 36556 ; value: >128 µg/mL
C[C@H]1[C@H](O)[C@@H](C)/C=C/C=C/C=C/C=C/C=C/C=C/C=C/[C@H](O[C@@H]2O[C@H](C)[C@@H](O)[C@H](N)[C@@H]2O)C[C@@H]2O[C@](O)(C[C@@H](O)C[C@@H](O)CC[C@H](O)[C@@H](O)C[C@@H](O)CC(=O)O[C@H]1C)C[C@H](O)[C@H]2C(=O)O ; endpoint: MIC ; strain: D49 ; value: 0.2 µg/mL
CCCSc1nc(Cl)c(C#N)c(-c2cccc(F)c2)n1 ; endpoint: MIC ; value: >100 µg/mL
NC(=S)NC1N=C(c2ccccc2)SN1 ; endpoint: MFC ; value: 32 µg/mL
CCCCC(Cn1ccnc1)c1ccc(Cl)cc1 ; endpoint: MIC ; value: <1 µg/mL
COc1cc(O)c2c(c1)C(=O)c1c(cc3c(c1O)-c1c(cc(C)c(C(=O)NCC(=O)O)c1O)[C@H](OC1OC(C)C(N(C)C)C(OC4OCC(O)C(O)C4O)C1O)[C@H]3O)C2=O ; endpoint: MIC ; strain: D49 ; value: 1.6 µg/mL
O=C1CC(c2ccccc2)N(C(=O)CCl)C(c2ccccc2)C1 ; endpoint: MIC ; value: >200 µg/mL
C=C1CO[C@H]2[C@@H](C)OC(OC[C@@]34C[C@H]5[C@H](C)CC[C@@H]5[C@@]5(C=O)C[C@@H]3C=C(C(C)C)[C@@]45C(=O)O)C[C@@H]12 ; endpoint: Mean MIC ; strain: 22 strains (serotype C) ; value: 0.587 µg/mL
CO[C@@H]1[C@H]2OC(C)(C)O[C@H]2O[C@@H]1C1=NOC(CO)C1 ; endpoint: MIC ; value: >50 µg/mL
CC(C)C[C@@H]1NC(=O)[C@H](C(C)C)NC1=O ; method: broth dilution ; endpoint: MIC100 ; value: 16 µg/mL
CN[C@@H]1[C@H](O[C@@H]2OC[C@@H](O)[C@H](O)[C@H]2O)[C@@H](O)[C@H](O[C@H]2c3cc(C)c(C(=O)N[C@H](C)C(=O)O)c(O)c3-c3c(cc4c(c3O)C(=O)c3cc(OC)cc(O)c3C4=O)[C@@H]2O)O[C@@H]1C ; endpoint: MIC ; strain: IAM 4514 ; value: 1.6 µg/mL
Clc1ccc(CN(Cc2ccc(-c3ccccc3)cc2)n2ccnc2)cc1 ; endpoint: MIC ; value: 200 µM
C[C@@H](N1CCN(Cc2cn(Cc3ccc(F)cc3)c3c(Cl)cccc23)CC1)[C@](O)(Cn1cncn1)c1ccc(F)cc1F ; method: resazurin ; endpoint: MIC80 ; strain: ATCC 36556 ; value: >128 µg/mL
C(=C\COc1ccc(C2=NCCN2)cc1)/COc1ccc(C2=NCCN2)cc1 ; endpoint: MIC ; strain: ATCC 32264 ; value: 4.12 µg/mL
O=[N+]([O-])c1ccc2[nH]c3c4ccccc4nnc3c2c1 ; endpoint: MIC ; value: 1.6 µM
CCCCC(Cn1ccnc1)c1ccc(Br)cc1 ; endpoint: MIC ; value: <1 µg/mL
O=C1C[C@@H](c2ccc(F)c(Br)c2)Cc2cc(O)cc(O)c21 ; endpoint: MIC ; strain: Clinical isolate H99 ; value: 71 µg/mL
CCCSc1nc(Cl)c(C#N)c(-c2ccco2)n1 ; endpoint: MIC ; value: >100 µg/mL
CC(O)Cc1ccc(Cn2cc(CN3CCN([C@H](C)[C@](O)(Cn4cncn4)c4ccc(F)cc4F)CC3)c3ccccc32)cc1 ; method: resazurin ; endpoint: MIC80 ; strain: ATCC 36556 ; value: >128 µg/mL
CCCCCC(Cn1ccnc1)c1ccc(F)cc1 ; endpoint: MIC ; value: 10 µg/mL
C[C@@H](N1CCN(Cc2cn(Cc3ccc(F)cc3F)c3cc(N=[N+]=[N-])ccc23)CC1)[C@](O)(Cn1cncn1)c1ccc(F)cc1F ; method: resazurin ; endpoint: MIC80 ; strain: ATCC 36556 ; value: >128 µg/mL
Fc1ccc(CN(Cc2ccc(-c3ccccc3)cc2)n2ccnc2)cc1 ; endpoint: MFC ; value: 200 µM
CC(=O)c1cn([C@@H]2O[C@H]([C@H](NC(=O)[C@@H](N)[C@H](C)[C@H](O)c3ccc(O)cn3)C(=O)O)[C@@H](O)[C@H]2O)c(=O)[nH]1 ; method: broth dilution ; endpoint: MIC ; strain: YC203 ; value: >50 µg/mL
N=C(N)c1ccc(OCCCC2CCN(CCCOc3ccc(C(=N)N)cc3)CC2)cc1 ; endpoint: MFC ; strain: ATCC90112 ; value: 0.125 µg/mL
OC(Cn1cncn1)(Cn1cncn1)c1ccc(F)cc1F ; endpoint: MIC ; strain: TIMM0354 ; value: 100 µg/mL
CCC(C)C1NC(=O)C(CC(C)C)OC(=O)C(C(C)C)OC(=O)C(NC(=O)C(C(C)CC)N(C)C(C)=O)C(C)OC(=O)C(CC(C)C)N(C)C(=O)C(C)NC(=O)C(C(C)C)N(C)C(=O)C(C(C)O)NC(=O)C(CC(C)C)N(C)C1=O ; endpoint: MIC ; strain: IAM 4772 ; value: 1.56 µg/mL
COc1cc(C2=NCCN2)ccc1OC/C=C/COc1ccc(C2=NCCN2)cc1OC ; endpoint: MIC ; strain: ATCC 32264 ; value: 12.5 µg/mL
COc1ccc(CN(Cc2ccc(-c3ccccc3)cc2)n2ccnc2)cc1 ; endpoint: MIC ; value: 200 µM
CCCCCCCC(Cn1ccnc1)c1c(Cl)cccc1Cl ; endpoint: MIC ; value: <1 µg/mL
COC12C=CC(=O)C=C1C(=O)c1ccccc1O2 ; endpoint: MIC ; strain: ATCC90112 ; value: 15.6 µg/mL
c1ccc(CN(Cc2ccc(-c3ccccc3)cc2)n2ccnc2)cc1 ; endpoint: MFC ; value: 200 µM
CC(C)=CCC1=CC(=O)C=C(C)C1=O ; endpoint: MIC ; strain: ATCC90112 ; value: 70 µg/mL
CCC(Cn1ccnc1)c1ccc(Cl)cc1Cl ; endpoint: MIC ; value: <1 µg/mL
COc1cc([C@@H]2CC(=O)c3c(O)cc(O)cc3C2)ccc1F ; endpoint: MIC ; strain: Clinical isolate H99 ; value: 608 µg/mL
C[C@@H](N1CCN(Cc2cn(Cc3ccc(F)cc3F)c3c(F)cccc23)CC1)[C@](O)(Cn1cncn1)c1ccc(F)cc1F ; method: resazurin ; endpoint: MIC80 ; strain: ATCC 36556 ; value: >128 µg/mL
Brc1ccc2[nH]c3c4ccccc4nnc3c2c1 ; endpoint: MIC ; value: >200 µM
CC1(C)O[C@H]2[C@@H](O1)[C@@H](C1=NOC(Cc3ccc(O)cc3)C1)O[C@@H]1OC(C)(C)O[C@@H]12 ; endpoint: MIC ; value: 25 µg/mL
N#CC(CC(=O)O)C(N)C(=O)O ; endpoint: MIC ; strain: IAM 4514 ; value: >100 µg/mL
COc1cc(O)c2c(c1)C(=O)c1c(cc3c(c1O)-c1c(cc(C)c(C(=O)NC(CO)C(=O)O)c1O)[C@H](OC1OC(C)C(O)C(OC4OCC(O)C(O)C4O)C1O)C3O)C2=O ; endpoint: MIC ; strain: IAM 4514 ; value: 6.3 µg/mL
CC(C)=CCC1=C(O)c2ccccc2C(=O)C1=O ; endpoint: MIC ; value: <0.09 µg/mL
O=[N+]([O-])c1ccc2[nH]c3c4ccc(Cl)cc4nnc3c2c1 ; endpoint: MIC ; value: 7.4 µM
N=C(N)c1ccc(OCCCC(O)COc2ccc(C(=N)N)cc2)cc1 ; endpoint: MFC ; strain: 133.95 ; value: 1.56 µg/mL
C[C@@H](N1CCN(Cc2cn(Cc3ccc(F)cc3)c3c(F)cccc23)CC1)[C@](O)(Cn1cncn1)c1ccc(F)cc1F ; method: resazurin ; endpoint: MIC80 ; strain: ATCC 36556 ; value: >128 µg/mL
CCCC(Cn1ccnc1)c1ccc(Cl)cc1 ; endpoint: MIC ; value: 10 µg/mL
CO/C=C1\[C@@H](Cn2cncn2)[C@H](COc2ccc(OC(F)(F)F)cc2)CC[C@@]1(C)CCOC ; endpoint: MIC ; strain: CY1057 ; value: 1 µg/mL
CCCCCCCC(Cn1ccnc1)c1ccc(F)cc1 ; endpoint: MIC ; value: <1 µg/mL
CO[C@@H]1[C@H]2OC(C)(C)O[C@H]2O[C@@H]1C1=NOC(C#N)C1 ; endpoint: MIC ; value: 50 µg/mL
CSCC[C@H]1NC(=O)[C@H]2CCCN2C1=O ; method: broth dilution ; endpoint: MIC100 ; value: 32 µg/mL

Repeating the first 5 entries:

compound,method,endpoint,strain,value
C[C@H]1[C@H](O)[C@@H](C)/C=C/C=C/C=C/C=C/C=C/C=C/C=C/[C@H](O[C@@H]2O[C@H](C)[C@@H](O)[C@H](N)[C@@H]2O)C[C@@H]2O[C@](O)(C[C@@H](O)C[C@@H](O)CC[C@H](O)[C@@H](O)C[C@@H](O)CC(=O)O[C@H]1C)C[C@H](O)[C@H]2C(=O)O,broth dilution,MFC,-,12.5 µg/mL
c1ccc(-c2ccc(C(c3ccccc3)n3ccnc3)cc2)cc1,-,MIC90,33 strains,5 µg/mL
CCC(C)n1ncn(-c2ccc(N3CCN(c4ccc(OC[C@H]5CO[C@](Cn6cncn6)(c6ccc(Cl)cc6Cl)O5)cc4)CC3)cc2)c1=O,-,MIC,ATCC 90113,2 µg/mL
CN[C@H]1CC[C@@H](c2ccc(Cl)c(Cl)c2)c2ccccc21,broth dilution,MFC,Bt81,8 µg/mL
CO[C@@H]1[C@H]2OC(C)(C)O[C@H]2O[C@@H]1C1=NOC(C(C)=O)C1,-,MIC,-,25 µg/mL

Conditions beyond the fields shown may differ between rows. A number after MIC or MFC names an inhibition level or a share of isolates.